Measured values from several laboratories, pooled; numbers as filed in NIAID ChemDB.

Common to all: whole-cell or culture tests; organism: Mycobacterium avium; measure: MIC

Blank or dashed fields: not listed here.

smiles,strain,method,setting,result
COc1cc(=O)n(C)c2ccccc12,ATCC 15769,broth dilution / resazurin,-,>2000 µg/mL
CC(C)Cc1cnc(C(=O)/C=C/c2ccccc2Br)cn1,Chester,absorbance,-,>100 µg/mL
O=C(O)c1cccc2ccccc12,MAC104,-,-,3200 µg/mL
O=C(/C=C/c1ccccc1Cl)c1cnccn1,Chester,absorbance,-,>100 µg/mL
CO[C@H]1/C=C/O[C@@]2(C)Oc3c(C)c(O)c4c(O)c(c5c(c4c3C2=O)NC2(CCN(CC(C)C)CC2)N=5)=NC(=O)/C(C)=C\C=C\[C@H](C)[C@H](O)[C@@H](C)[C@@H](O)[C@@H](C)[C@H](OC(C)=O)[C@@H]1C,5-74,-,-,<0.15 µg/mL
CC(C)(C)c1cnc(C(=O)/C=C/c2ccc(Br)cc2)cn1,Chester,absorbance,-,>50 µg/mL
CN(C)c1ccc(NC(=O)c2ccccc2O)cc1,MY330/88,-,-,250 µM
CN(C)C(=S)Oc1ccc(Cl)cc1C(=O)Nc1ccc(Cl)cc1,330/88,broth dilution,21 d,21 µM
O=C(Nc1ccc(Cl)c(Cl)c1)c1cc(Cl)ccc1OP(=O)(Oc1ccccc1)Oc1ccccc1,MY330/88,-,14 d,16 µM
Cc1cc(CN2CCOCC2)c(C)[nH]1,103317,-,-,>64 µg/mL
COc1ccc(-c2cn(C)cc2[N+](=O)[O-])c(Cl)c1,CIP103317,-,-,16 µg/mL
CCCCCCCCCCC(C)C(=O)O[C@@H]1[C@H](OC)[C@@H]([C@@H](C[C@H]2OC(C(=O)N[C@H]3CCC[C@@H](C)NC3=O)=C[C@H](O)[C@@H]2O)C(N)=O)O[C@H]1n1ccc(=O)[nH]c1=O,HIHJ 1605,-,-,1 µg/mL
O=C(/C=C/c1ccccc1Br)c1cnccn1,Chester,absorbance,-,100 µg/mL
O=C(O)c1cn(C2CC2)c2c(Cl)c(N3C[C@@H]4CCCN[C@@H]4C3)c(F)cc2c1=O,I,-,-,1 µg/mL
O=C(O)c1cc([N+](=O)[O-])c2oc3ccc([N+](=O)[O-])cc3c(=O)c2c1,SN 304,-,-,>32 µg/mL
CCCCCCn1c(C)c(CN2CCOCC2)c(CN2CCOCC2)c1C,103317,-,-,>64 µg/mL
O=c1[nH]c2ccccc2c(=O)n1-c1ccc(F)cc1,MY330/88,-,-,>125 µM
CCCCc1cnc(C(=O)/C=C/c2ccccc2Br)cn1,Chester,absorbance,-,>100 µg/mL
CC[C@H]1OC(=O)[C@H](C)[C@@H](O[C@H]2C[C@@](C)(OC)[C@@H](O)[C@H](C)O2)[C@H](C)[C@@H](O[C@@H]2O[C@H](C)C[C@H](N(C)C)[C@H]2O)[C@](C)(OC)C[C@@H](C)C(=O)[C@H](C)[C@@H](O)[C@]1(C)O,A5,-,-,≤0.13 µg/mL
COC1=C(C)C(=O)c2cc(=O)n(C)cc2C1=O,-,-,-,25 µg/mL
S=C(N=Nc1ccccc1)NNc1ccccc1,MAC104,-,-,400 µg/mL
c1ccc(C2=NCCN2)c(NCc2cccc3ccccc23)c1,103317,-,-,4 µg/mL
O=C(O)c1cn(C2CC2)c2c(F)c(N3CCN4CCC3C4)c(F)cc2c1=O,PI2/8,-,-,0.03 µg/mL
CC1CN(c2cc3c(cc2F)c(=O)c(C(=O)O)cn3C(C)(C)C)CCN1,14 strains,-,-,0.1–12.5 µg/mL
Cc1c(CN2CCOCC2)cc(-c2ccc(Cl)cc2)n1C1CCCCC1,103317,-,-,>64 µg/mL
O=C1C=CC(=O)c2c(O)ccc(O)c21,MAC104,-,-,6.25 µg/mL
C[C@](Cl)([C@@H](Br)/C=C/[C@](C)(Cl)CBr)[C@@H](Br)CCl,ATCC 25291,-,-,>128 µg/mL
Cc1cccc2oc3ccccc3c(=O)c12,SN 304,-,-,>32 µg/mL
CCN1CCN(c2c(F)cc3c(=O)c(C(=O)O)cn(C4CC4)c3c2OC)CC1,14 strains,-,-,0.1–12.5 µg/mL
CCCCc1cnc(C(=O)/C=C/c2ccc(Cl)cc2)cn1,Chester,absorbance,-,12.5 µg/mL
C[C@@H]1CN(c2nc3c(cc2F)c(=O)c(C(=O)O)cn3C(C)(C)C)C[C@H](C)N1,14 strains,-,-,0.1–12.5 µg/mL
O=C(Nc1ccc(Cl)cc1)c1cc(Cl)ccc1OP(=O)(Oc1ccccc1)Oc1ccccc1,MY330/88,-,14 d,16 µM
CO[C@H]1/C=C/O[C@@]2(C)Oc3c(C)c(O)c4c(O)c(c5c(c4c3C2=O)NC2(CCN(CC(C)C)CC2)N=5)=NC(=O)/C(C)=C\C=C\[C@H](C)[C@H](O)[C@@H](C)[C@@H](O)[C@@H](C)[C@H](OC(C)=O)[C@@H]1C,Isolate 90-1625,-,-,1 µg/mL
CO[C@H]1[C@@H](O)[C@H](n2ccc(=O)[nH]c2=O)O[C@@H]1[C@@H](O[C@H]1OC(C(=O)N[C@H]2CCCCNC2=O)=C[C@H](O)[C@@H]1O)C(N)=O,HIHJ 1605,-,-,8 µg/mL
CCn1cc(C(=O)O)c(=O)c2cc(F)c(N3CCS(=O)CC3)c(F)c21,PI12/39,-,-,0.25 µg/mL
C=C(COC(C)=O)C1Cc2cc(O)c(C(C)=O)cc2O1,ATCC 25291,-,-,64 µg/mL
O=C(Nc1ccccc1)c1ccccc1OP(=O)(Oc1ccccc1)Oc1ccccc1,MY330/88,-,7 d,125 µM
C[C@]1(/C=C/Cl)C[C@](Cl)(CBr)[C@@H](Br)C[C@H]1Cl,-,-,-,64 µg/mL
Cc1ccc2c(=O)c3ccccc3oc2c1,SN 304,-,-,>32 µg/mL
CC(C)=CCC1=C(O)c2ccccc2C(=O)C1=O,MAC104,-,-,100 µg/mL
CC(C)c1cnc(C(=O)/C=C/c2ccc(Br)cc2)cn1,Chester,absorbance,-,>100 µg/mL
CC(N)C1CCN(c2nc3c(cc2F)c(=O)c(C(=O)O)cn3C2CC2)C1,PI2/8,-,-,0.12 µg/mL
CN[C@@H]1[C@@H](O)[C@@H](O[C@@H]2[C@@H](O)[C@H](O[C@H]3O[C@H](CN)CC[C@H]3N)[C@@H](N)C[C@H]2N)OC[C@]1(C)O,SN 304,-,-,>32 µg/mL
CC(C)c1cnc(C(=O)/C=C/c2ccc(Cl)cc2)cn1,Chester,absorbance,-,>50 µg/mL
COc1ccc(-n2c(=O)[nH]c3ccccc3c2=O)cc1,MY330/88,-,-,>500 µM
O=C1C=CC(=O)C=C1,MAC104,-,-,100 µg/mL
CCn1cc(C(=O)O)c(=O)c2ccc(C)nc21,3 strains,-,-,128 µg/mL
COc1ccc(-n2c(=O)oc3ccccc3c2=O)cc1,MY330/88,-,-,31 µM
C[C@]1(/C=C/Cl)C[C@](Cl)(CBr)[C@@H](Br)C[C@H]1Cl,ATCC 25291,-,-,64 µg/mL
CCCCCCn1c(C)c(CN2CCN(C)CC2)c(CN2CCN(C)CC2)c1-c1ccc(Cl)cc1,103317,-,-,>64 µg/mL
Cc1ccc2oc3ccccc3c(=O)c2c1,SN 304,-,-,>32 µg/mL
Cc1c(CN2CCSCC2)cc(-c2ccccc2)n1-c1ccc(F)cc1,103317,-,-,2 µg/mL
CCOc1ccc(NC(C)=O)cc1,MAC104,-,-,800 µg/mL
Nc1ccc2oc3ccc(C(=O)O)cc3c(=O)c2c1,SN 304,-,-,>32 µg/mL
Cc1c(CN2CCSCC2)cc(-c2ccc(F)cc2)n1-c1ccc(F)cc1,103317,-,-,16 µg/mL
CC(=O)Nc1ccc(/C=N/NC(N)=S)cc1,A71,-,-,1 µg/mL
Cc1c(CN2CCOCC2)c(CN2CCOCC2)c(-c2ccc(Cl)cc2)n1C1CCCCC1,103317,-,-,8 µg/mL
CCC[C@@H](O)C1=C(Br)/C(=C/Br)OC1=O,ATCC 25291,-,-,>128 µg/mL
C[C@@H]1CN(c2cc3c(cc2F)c(=O)c(C(=O)O)cn3C(C)(C)C)C[C@H](C)N1,14 strains,-,-,0.1–12.5 µg/mL
CC(C)(C)c1cnc(C(=O)/C=C/c2ccc(Cl)cc2)cn1,Chester,absorbance,-,>50 µg/mL
O=C1c2cc(Cl)ccc2OP(=O)(c2ccccc2)N1c1ccc(Cl)cc1,MY330/88,-,7 d,16 µM
O=c1c2ccccc2nc2n1CCc1c-2[nH]c2ccccc12,ATCC 15769,broth dilution / resazurin,-,>2000 µM
O=C1c2cc(Cl)ccc2OP(=O)(c2ccccc2)N1c1ccc(C(F)(F)F)cc1,MY330/88,-,14 d,8 µM
Cc1cc(N)cc2c(=O)c3ccccc3oc12,SN 304,-,-,>16 µg/mL
CC[C@H]1OC(=O)[C@H](C)[C@@H](O[C@H]2C[C@@](C)(OC)[C@@H](O)[C@H](C)O2)[C@H](C)[C@@H](O[C@@H]2O[C@H](C)C[C@H](N(C)C)[C@H]2O)[C@](C)(OC)C[C@@H](C)C(=O)[C@H](C)[C@@H](O)[C@]1(C)O,N-444,broth dilution,-,16 µg/mL

a–b is a range or a potency band. Conditions beyond the fields shown may differ between rows.